Laboratory results: publication PMC10193894 (Journal of Enzyme Inhibition and Medicinal Chemistry, 2023)

Sequences of proteins named here, by UniProt entry; tags and fusion partners are left off. Residues count along the entry.
UniProt O14786, 275-424 limits assumed: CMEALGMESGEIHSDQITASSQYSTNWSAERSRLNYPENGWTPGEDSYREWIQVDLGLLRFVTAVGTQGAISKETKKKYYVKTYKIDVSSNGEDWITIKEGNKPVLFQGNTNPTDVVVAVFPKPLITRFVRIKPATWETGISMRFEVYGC

Tests used:
[1] = biological target: NRP1-BD (the b1 domain of NRP1) (Homo sapiens, UniProt O14786); assay: Microscale thermophoresis (MST) binding to NRP1-BD; conditions: read-out: NRP1-BD Kd, mean ± SD (n = 3)
AC16 = assay: MTT cytotoxicity assay, AC16 cells; conditions: up to 80 μM, 48 h
FHs 74 Int = assay: MTT cytotoxicity assay, FHs 74 Int cells; conditions: up to 80 μM, 48 h
A549 = assay: MTT cytotoxicity assay, A549 cells; conditions: up to 80 μM, 48 h

Compound	Kd [1] [nM]	cytotoxicity to AC16 (MTT) (AC16)	cytotoxicity to FHs 74 Int (MTT) (FHs 74 Int)	cytotoxicity to A549 (MTT) (A549)
CC(=O)N[C@@H](CCC(=O)O)C(=O)N[C@@H](C)C(=O)N[C@@H](CCCNC(=N)N)C(=O)N[C@H](C(=O)N[C@@H](Cc1ccccc1)C(=O)N[C@@H](CC(C)C)C(=O)N[C@@H](CC(=O)O)C(=O)N[C@@H](CCCCN)C(=O)N[C@@H](Cc1ccc(O)cc1)C(=O)N[C@@H](CC(N)=O)C(=O)N[C@@H](Cc1c[nH]cn1)C(=O)N[C@@H](CCC(=O)O)C(=O)N[C@@H](C)C(=O)N[C@@H](CCC(=O)O)C(=O)N[C@@H](CC(=O)O)C(=O)N[C@@H](CC(C)C)C(=O)N[C@@H](Cc1ccc(O)cc1)C(=O)N[C@@H](Cc1ccc(O)cc1)C(=O)N[C@@H](CCC(N)=O)C(=O)N[C@@H](CO)C(=O)N[C@@H](CO)C(=O)N[C@@H](CC(C)C)C(=O)N[C@@H](C)C(=O)N[C@@H](CO)C(=O)N[C@@H](Cc1c[nH]c2ccccc12)C(=O)NCC(=O)N[C@@H](CO)C(=O)N1CCC[C@H]1C(=O)N[C@@H](CCCNC(=N)N)C(=O)N[C@@H](CCCNC(=N)N)C(=O)N[C@@H](C)C(=O)N[C@@H](CCCNC(=N)N)C(=O)O)[C@@H](C)O [RN-4]	16.1	did not show any observable cytotoxicity	did not show any observable cytotoxicity	did not show any observable cytotoxicity
CC[C@H](C)[C@H](NC(=O)[C@H](Cc1ccc(O)cc1)NC(=O)[C@@H](NC(=O)[C@H](CCCCN)NC(=O)[C@H](CC(N)=O)NC(=O)[C@H](CCC(N)=O)NC(C)=O)C(C)C)C(=O)N[C@@H](CC(=O)O)C(=O)N[C@@H](CCCCN)C(=O)N[C@@H](Cc1ccc(O)cc1)C(=O)N[C@@H](CC(N)=O)C(=O)N[C@@H](Cc1c[nH]cn1)C(=O)N[C@@H](CCC(=O)O)C(=O)N[C@@H](C)C(=O)N[C@@H](CCC(N)=O)C(=O)N[C@@H](CC(=O)O)C(=O)N[C@@H](CC(C)C)C(=O)N[C@@H](Cc1ccccc1)C(=O)N[C@@H](Cc1ccc(O)cc1)C(=O)N[C@@H](CCC(N)=O)C(=O)N[C@@H](CO)C(=O)N[C@@H](C)C(=O)N[C@@H](CC(C)C)C(=O)N[C@@H](CCCCN)C(=O)N[C@@H](C)C(=O)N[C@@H](Cc1c[nH]cn1)C(=O)N[C@@H](CCCNC(=N)N)C(=O)NCC(=O)N[C@@H](CC(N)=O)C(=O)N[C@@H](CCCNC(=N)N)C(=O)N[C@@H](CCCNC(=N)N)C(=O)N[C@@H](C)C(=O)N[C@@H](CCCNC(=N)N)C(=O)O [RN-1]	24.1	–	–	–
CC[C@H](C)[C@H](NC(=O)[C@H](CC(N)=O)NC(=O)[C@H](CCCNC(=N)N)NC(=O)[C@H](CCC(N)=O)NC(C)=O)C(=O)N[C@@H](Cc1ccc(O)cc1)C(=O)N[C@@H](CC(C)C)C(=O)N[C@@H](CC(=O)O)C(=O)N[C@@H](CCCNC(=N)N)C(=O)N[C@@H](Cc1c[nH]cn1)C(=O)N[C@@H](CC(N)=O)C(=O)N[C@@H](Cc1c[nH]cn1)C(=O)N[C@@H](CCC(=O)O)C(=O)N[C@@H](C)C(=O)N[C@@H](CCC(=O)O)C(=O)N[C@@H](CC(=O)O)C(=O)N[C@@H](CC(C)C)C(=O)N[C@@H](CCCCN)C(=O)N[C@@H](Cc1ccc(O)cc1)C(=O)N[C@@H](CCC(N)=O)C(=O)N[C@H](C(=O)N[C@@H](C)C(=O)N[C@@H](CC(C)C)C(=O)N[C@@H](C)C(=O)N[C@@H](CO)C(=O)N[C@@H](Cc1ccccc1)C(=O)N[C@@H](CCCNC(=N)N)C(=O)N1CCC[C@H]1C(=O)N[C@@H](C)C(=O)N[C@@H](CCCCN)C(=O)N1CCC[C@H]1C(=O)N[C@@H](C)C(=O)N[C@@H](CCCNC(=N)N)C(=O)O)[C@@H](C)O [RN-3]	91.4	–	–	–
CC(=O)N[C@@H](CCC(=O)O)C(=O)N[C@@H](CCCCN)C(=O)N[C@@H](CO)C(=O)N[C@H](C(=O)N[C@@H](CC(C)C)C(=O)N[C@@H](CCCCN)C(=O)N[C@@H](CC(=O)O)C(=O)N[C@@H](CCCNC(=N)N)C(=O)N[C@@H](Cc1ccccc1)C(=O)N[C@@H](CC(N)=O)C(=O)N[C@@H](Cc1c[nH]cn1)C(=O)N[C@@H](CCC(=O)O)C(=O)N[C@@H](C)C(=O)N[C@@H](CCC(N)=O)C(=O)N[C@@H](CC(=O)O)C(=O)N[C@@H](CC(C)C)C(=O)N[C@@H](CCCCN)C(=O)N[C@@H](Cc1ccc(O)cc1)C(=O)N[C@@H](CCC(N)=O)C(=O)N[C@@H](CC(=O)O)C(=O)N[C@@H](CO)C(=O)N[C@@H](CC(C)C)C(=O)N[C@@H](C)C(=O)N[C@@H](CO)C(=O)N[C@@H](Cc1ccc(O)cc1)C(=O)N[C@@H](CCCNC(=N)N)C(=O)NCC(=O)N[C@@H](CCCCN)C(=O)N[C@@H](CCCNC(=N)N)C(=O)N1CCC[C@H]1C(=O)N1CCC[C@H]1C(=O)N[C@@H](CCCNC(=N)N)C(=O)O)[C@@H](C)O [RN-2]	87.1	–	–	–
CC(=O)N[C@@H](CCC(=O)O)C(=O)N[C@H](C(=O)N[C@@H](CCC(N)=O)C(=O)N[C@H](C(=O)N[C@@H](CC(C)C)C(=O)N[C@@H](CC(C)C)C(=O)N[C@@H](CC(=O)O)C(=O)N[C@@H](CCCCN)C(=O)N[C@@H](CC(C)C)C(=O)N[C@@H](CC(N)=O)C(=O)N[C@@H](Cc1c[nH]cn1)C(=O)N[C@@H](CCC(=O)O)C(=O)N[C@@H](C)C(=O)N[C@@H](CCC(=O)O)C(=O)N[C@@H](CC(=O)O)C(=O)N[C@@H](CC(C)C)C(=O)N[C@@H](CCCCN)C(=O)N[C@@H](Cc1ccc(O)cc1)C(=O)N[C@@H](CCC(N)=O)C(=O)N[C@@H](CO)C(=O)N[C@@H](C)C(=O)N[C@@H](CC(C)C)C(=O)N[C@@H](C)C(=O)N[C@@H](CO)C(=O)N[C@@H](Cc1c[nH]cn1)C(=O)N[C@@H](CCCNC(=N)N)C(=O)N[C@H](C(=O)N[C@@H](CCCNC(=N)N)C(=O)N[C@@H](CCCNC(=N)N)C(=O)N1CCC[C@H]1C(=O)N1CCC[C@H]1C(=O)N[C@@H](CCCNC(=N)N)C(=O)O)C(C)C)C(C)C)[C@@H](C)O [RN-5]	85.1	–	–	–
